Results of unrelated studies side by side (data: NIAID ChemDB).

Common to all: host cell toxicity; cell line: MT-4; measure: CC50

a–b is a range or a potency band. Neighbouring rows are from separate reports. CCn is the concentration with n% toxicity to the cells.

smiles | result
Cc1cn([C@H]2C=C[C@@H](CO)O2)c(=O)[nH]c1=O | 1.2 µM
O=C1Nc2ccccc2Sn2cccc21 | >300 µM
O=c1ccn([C@H]2C=C[C@@H](CO)O2)c(=O)[nH]1 | 27 µM
O=c1ccn([C@@H]2CC(CO)(CO)CS2)c(=O)[nH]1 | >100 µg/mL
CC1CCCCN1CCCNCCc1ccc(CCNCCCN2CCCCC2C)cc1 | 52 µg/mL
NOCc1cc(Cl)ccc1Cl | 47 µg/mL
c1cnc2c(c1)cc(CN1CCCNCCNCCCNCC1)c1cccnc12 | 16.1 µM
C1CNCCNCC(C2CNCCNCCCNCCNC2)CNCCNC1 | 54 µg/mL
COc1ccc(Oc2coc3cc(O)cc(O)c3c2=O)c(OC)c1 | 47 µg/mL
C1CNCCNCCCN[C@@H]([C@H]2CNCCCNCCNCCCN2)CNC1 | 200 µg/mL
COc1ccc(/C=C/Sc2nc(Cc3c(Cl)cccc3Cl)c(C)c(=O)[nH]2)cc1 | >57.74 µM
O=C1Nc2ccccc2Cn2cccc21 | >300 µM
CCCCCCCC(=O)O[C@@H]1[C@@H](C)[C@@]2(O)[C@@H](C=C(COC(C)=O)C[C@@]3(O)C(=O)C(C)=C[C@@H]23)[C@@H]2C(C)(C)[C@]12OC(C)=O | >500 µg/mL
CN(C)c1ncnc2c1ncn2[C@@H]1O[C@H](CO[Si](C)(C)C(C)(C)C)C2(OS(=O)(=O)C=C2N)[C@H]1O[Si](C)(C)C(C)(C)C | 10 µg/mL
C1CNCCNCC(CCCC2CNCCNCCCNCCNC2)CNCCNC1 | 260 µM
Cc1ccnc2c1NC(=O)c1cccnc1N2C1CC1 | >200 µM
Cc1c(C(C)c2c(Cl)cccc2Cl)nc(SC/C=C/c2ccc([N+](=O)[O-])cc2)[nH]c1=O | 40.97 µM
Cc1c(C(C)c2c(F)cccc2F)nc(SC2CCCC2)[nH]c1=O | >200 µM
CC(=O)OCCOCn1cc(C#N)c2ccccc21 | >200 µM
Cc1c(C(C)c2c(Cl)cccc2Cl)nc(SCc2ccc([N+](=O)[O-])cc2)[nH]c1=O | >11.11 µM
Cc1cn([C@@H]2CC(CO)(CO)CS2)c(=O)[nH]c1=O | >100 µg/mL
O=C1CSC(c2c(F)cccc2F)N1c1cccc(C(F)(F)F)c1 | 36.4 µM
Cc1cn([C@H]2CC[C@@H](CO)O2)c(=O)[nH]c1=O | >125 µM
CC(C)(C)NC(=O)[C@@H]1C[C@@H]2CCCC[C@@H]2CN1C[C@@H](OC(=O)COc1ccc(C[C@H](N)C(=O)O)cc1)[C@H](Cc1ccccc1)NC(=O)[C@H](CC(N)=O)NC(=O)c1ccc2ccccc2n1 | >0.01 µM
Cc1cn([C@@H]2O[C@H](CO[Si](C)(C)C(C)(C)C)C3(OS(=O)(=O)C=C3N)[C@H]2O)c(=O)[nH]c1=O | 95 µM
NOCc1c(F)cccc1Cl | 62.3 µg/mL
COc1ccc(-c2oc3cc(O)cc(O)c3c(=O)c2OC)cc1O | 0.06 µg/mL
Cc1cn([C@@H]2O[C@H](CO[Si](C)(C)C(C)(C)C(C)C)C3(OS(=O)(=O)C=C3N)[C@H]2O[Si](C)(C)C(C)(C)C)c(=O)n(C)c1=O | 29 µM
CCCCCCCC/C=C\CCCCCCCC(=O)O[C@@H]1Cc2ccccc2[C@@H]1NC(=O)[C@H](Cc1ccccc1)C[C@H](O)CN1CCN(Cc2cccnc2)C[C@H]1C(=O)NC(C)(C)C | >0.01 µM
Nc1ccn([C@H]2CO[C@@H](CP(=O)(O)O)O2)c(=O)n1 | >332 µM
Cc1cn([C@@H]2O[C@H](COCc3ccccc3)C3(OS(=O)(=O)C=C3NC(=O)c3ccccc3)[C@H]2OC(=O)c2ccccc2)c(=O)[nH]c1=O | 89 µM
Cc1cn(/C=C/[C@H](O)[C@H](O)CO)c(=O)[nH]c1=O | 500 µM
Cc1ccnc2c1NC(=O)c1cccnc1N2C1CC1 | >50 µM
Cc1cn([C@@H]2O[C@H](COCc3ccccc3)C3(OS(=O)(=O)C(Cc4ccccc4)=C3NCc3ccccc3)[C@H]2O[Si](C)(C)C(C)(C)C)c(=O)n(C)c1=O | >130 µM
Nc1nc(=O)n([C@@H]2CC[C@H](CO)O2)cc1F | 70 µM
Cn1cnc2ncn([C@@H]3O[C@H](CO[Si](C)(C)C(C)(C)C)C4(OS(=O)(=O)C=C4N)[C@H]3O[Si](C)(C)C(C)(C)C)c2c1=O | 89 µg/mL
COCCN1C(=O)c2cccn2S(=O)(=O)c2ccccc21 | >300 µM
C1CNCCNCCNCCN1 | 19.5 µM
Cn1cc(C(=O)O)c(=O)c2cc(F)c(N3CC=C(c4ccccc4)CC3)c(C(F)(F)F)c21 | 0.5 µM
Nc1nc2c(ncn2CCOCP(=O)(O)O)c(=O)[nH]1 | 2.4 µM
CC(C)C(NC(=O)OC(C)(C)C)C(=O)O[C@@H](C[C@@H](Cc1ccccc1)C(=O)N1[C@H]2c3ccccc3C[C@H]2OC1(C)C)CN1CCN(Cc2cccnc2)C[C@H]1C(=O)NC(C)(C)C | 0.07 µM
Cc1nc(N2C(=O)CSC2c2c(F)cccc2Cl)ccc1Br | 30.12 µM
Cc1cn([C@@H]2O[C@H](CO[Si](C(C)(C)C)(C(C)(C)C)C(C)(C)C)C3(OS(=O)(=O)C=C3N)[C@H]2O[Si](C)(C)C(C)(C)C)c(=O)n(C)c1=O | 50 µM
CCCCCCCCCCCCCC(=O)O[C@@H]1[C@@H](C)[C@@]2(O)[C@@H](C=C(COC(C)=O)C[C@]3(OC)C(=O)C(C)=C[C@@H]23)[C@@H]2C(C)(C)[C@]12OC(C)=O | >15.6 µg/mL
Cc1cn([C@H]2C[C@H](N=[N+]=[N-])[C@@H](CO)O2)c(=O)[nH]c1=O | 154 µM
O=S1(=O)c2ccccc2-n2cncc2-c2cccn21 | 85 µM
Cc1cn([C@H]2C[C@H](N=[N+]=[N-])[C@@H](CO)O2)c(=O)[nH]c1=O | >0.5 µg/mL
OCCOCn1c(-c2ccccc2)c(Br)c2ccccc21 | 117 µM
C(CC1CNCCNCCNCCNCCNC1)CC1CNCCNCCNCCNCCNC1 | 4.5 µM
Nc1ccn([C@H]2CO[C@H](CP(=O)(O)O)O2)c(=O)n1 | >332 µM
COc1ccc(COCCSc2nc(C(C)c3c(Cl)cccc3Cl)c(C)c(=O)[nH]2)cc1 | 39.04 µM
CC1(C)S[C@H]([C@H](NC(=O)Cc2ccccc2)C(=O)NCc2ccccc2)N[C@H]1C(=O)NCC(O)CNC(=O)[C@@H]1N[C@@H]([C@H](NC(=O)Cc2ccccc2)C(=O)NCc2ccccc2)SC1(C)C | ≥100 µM
Nc1ncnc2c1nnn2CCOCP(=O)(O)O | >366 µM
OCCOCn1c(-c2ccccn2)c(Br)c2ccccc21 | >200 µM
COCc1cn([C@H]2C[C@H](N=[N+]=[N-])[C@@H](CO)O2)c(=O)[nH]c1=O | >500 µM
Fc1cccc(F)c1[C@H]1SCc2nc3ccccc3n21 | 25 µg/mL
COC(=O)[C@@H](NC(=O)Cc1ccccc1)[C@@H]1N[C@@H](C(=O)NC[C@@H](O)CN2C[C@H]3CCCC[C@H]3C[C@H]2C(=O)NC(C)(C)C)C(C)(C)S1 | >100 µM
Cc1ccc(CN2C(=O)CSC2c2c(Cl)cccc2Cl)o1 | 29.65 µM
Cc1ccnc(-c2cc(CN3CCCNCCNCCCNCC3)ccn2)c1 | 1.13 µM
CC(=O)OCC1=C[C@H]2[C@@H]3C(C)(C)[C@]3(OC(C)=O)[C@H](OC(C)=O)[C@@H](C)[C@]2(O)[C@@H]2C=C(C)C(=O)[C@@H]2C1 | >250 µg/mL
Cc1cn([C@H]2CO[C@@H](CP(=O)(O)O)O2)c(=O)[nH]c1=O | >332 µM
CNc1ncnc2c1ncn2[C@@H]1O[C@H](CO[Si](C)(C)C(C)(C)C)C2(OS(=O)(=O)C=C2N)[C@H]1O[Si](C)(C)C(C)(C)C | 4–20 µg/mL
C1CNCCNCCCN[C@H]([C@H]2CNCCCNCCNCCCN2)CNC1 | 299 µg/mL
Nc1ccn([C@H]2CC[C@@H](CO)O2)c(=O)n1 | >100 µM
CC(C)=CCc1c(O)c(CC=C(C)C)c2c(c1O)-c1cc(O)c(O)cc1CC2 | 2 µg/mL
CN(C)c1ccc(C2SCC(=O)N2c2ccccn2)cc1 | 254 µM
CC1CCN(CCCN2c3ccccc3NC(C)c3cccn32)CC1 | 173 µM
O=C1CSC(c2c(F)cccc2Cl)N1c1cccc(C(F)(F)F)c1 | 31.88 µM
CO[C@H]1O[C@@H](n2ccc(=O)[nH]c2=O)C[C@@H]1N=[N+]=[N-] | 244 µM
CCc1c(Cc2c(Cl)cccc2Cl)nc(SC/C=C/c2ccc([N+](=O)[O-])cc2)[nH]c1=O | 32.14 µM
CCOC(=O)C1c2cccn2S(=O)(=O)c2ccccc2N1C(C)=O | >300 µM
CCNC(=O)[C@@H](NC(=O)Cc1ccccc1)[C@@H]1N[C@@H](C(=O)NCCNC(=O)[C@@H]2N[C@@H]([C@H](NC(=O)Cc3ccccc3)C(=O)NCC)SC2(C)C)C(C)(C)S1 | ≥100 µM
NOCc1c(Cl)cccc1Cl | 51.9 µg/mL
N#Cc1cc(Cl)cc(Oc2cc(OCc3[nH]nc4cccnc34)ccc2Cl)c1 | >8.3 µM
C1CNCCNCCCNCCNC1 | 950 µM
Nc1c(-c2ccccn2)n(COCCO)c2ccccc12 | 50 µM
CC(C)=CCc1c(O)cc2oc(-c3ccc(O)c(O)c3)c(O)c(=O)c2c1O | 22 µg/mL
CCOP(=O)(O)COCCn1nnc2c(N)ncnc21 | >331 µM
CC1SC(c2c(F)cccc2F)N(Cc2ccco2)C1=O | 118 µM
Cc1cn([C@@H]2O[C@H](CO[Si](c3ccccc3)(c3ccccc3)C(C)(C)C)C3(OS(=O)(=O)C=C3N)[C@H]2O[Si](C)(C)C(C)(C)C)c(=O)n(C)c1=O | 42 µM
C(CCC1CNCCNCCCNCCNC1)CCC1CNCCNCCCNCCNC1 | 70 µM
Cc1cccc(N2C(=O)CSC23CCCCC3)n1 | 381 µM
CC(C)(C)[Si](C)(C)OC[C@H]1O[C@@H](n2cnc3nc[nH]c(=O)c32)[C@H](O[Si](C)(C)C(C)(C)C)C12OS(=O)(=O)C=C2N | 8.5 µg/mL
Cc1c(Cc2c(F)cccc2F)nc(SCC(=O)c2ccc([N+](=O)[O-])cc2)[nH]c1=O | >58 µM
CCCCCCCCCCCCCC(=O)O[C@@H]1[C@@H](C)[C@@]2(O)[C@@H](C=C(COC(C)=O)C[C@]3(O)C(=O)C(C)=C[C@@H]23)[C@@H]2C(C)(C)[C@]12OC(C)=O | >62.5 µg/mL
CCn1cnc2ncn([C@@H]3O[C@H](CO[Si](C)(C)C(C)(C)C)C4(OS(=O)(=O)C=C4N)[C@H]3O[Si](C)(C)C(C)(C)C)c2c1=O | >100 µg/mL
CC(C)(C)NC(=O)[C@@H]1C[C@@H]2CCCC[C@@H]2CN1C[C@@H](O)[C@H](Cc1ccccc1)NC(=O)[C@H](CC(N)=O)NC(=O)c1ccc2ccccc2n1 | >0.01 µM
Nc1ccn([C@H]2CC[C@@H](CO)O2)c(=O)n1 | 9.1 µM

13 of the rows above, restated:

smiles	result
CCNC(=O)[C@@H](NC(=O)Cc1ccccc1)[C@@H]1N[C@@H](C(=O)NCCNC(=O)[C@@H]2N[C@@H]([C@H](NC(=O)Cc3ccccc3)C(=O)NCC)SC2(C)C)C(C)(C)S1	≥100 µM
CC1CCCCN1CCCNCCc1ccc(CCNCCCN2CCCCC2C)cc1	52 µg/mL
CN(C)c1ccc(C2SCC(=O)N2c2ccccn2)cc1	254 µM
Nc1nc(=O)n([C@@H]2CC[C@H](CO)O2)cc1F	70 µM
Cc1cn([C@H]2C[C@H](N=[N+]=[N-])[C@@H](CO)O2)c(=O)[nH]c1=O	154 µM
Fc1cccc(F)c1[C@H]1SCc2nc3ccccc3n21	25 µg/mL
O=C1Nc2ccccc2Sn2cccc21	>300 µM
COCc1cn([C@H]2C[C@H](N=[N+]=[N-])[C@@H](CO)O2)c(=O)[nH]c1=O	>500 µM
Cc1c(C(C)c2c(Cl)cccc2Cl)nc(SC/C=C/c2ccc([N+](=O)[O-])cc2)[nH]c1=O	40.97 µM
O=c1ccn([C@H]2C=C[C@@H](CO)O2)c(=O)[nH]1	27 µM
O=C1CSC(c2c(F)cccc2F)N1c1cccc(C(F)(F)F)c1	36.4 µM
C1CNCCNCCCN[C@@H]([C@H]2CNCCCNCCNCCCN2)CNC1	200 µg/mL
Cc1nc(N2C(=O)CSC2c2c(F)cccc2Cl)ccc1Br	30.12 µM